Values quoted from earlier work as cited in paper PMC7094737 (Journal of Molecular Biology, 2008).
pKd: −log10 of the molar value.

Biological target: SARS macro (Severe acute respiratory syndrome coronavirus, UniProt P0C6X7)
Settings: read-out: affinity for ADP-ribose; cited from earlier work

ADP-ribose
pKd: ~4.62
